# Source: PubChem BioAssay AID485341 (National Center for Advancing Translational Sciences (NCATS), 2010)
# By UniProt entry, the sequences of proteins in these tests, tags left out.
# UniProt P00811, whole entry: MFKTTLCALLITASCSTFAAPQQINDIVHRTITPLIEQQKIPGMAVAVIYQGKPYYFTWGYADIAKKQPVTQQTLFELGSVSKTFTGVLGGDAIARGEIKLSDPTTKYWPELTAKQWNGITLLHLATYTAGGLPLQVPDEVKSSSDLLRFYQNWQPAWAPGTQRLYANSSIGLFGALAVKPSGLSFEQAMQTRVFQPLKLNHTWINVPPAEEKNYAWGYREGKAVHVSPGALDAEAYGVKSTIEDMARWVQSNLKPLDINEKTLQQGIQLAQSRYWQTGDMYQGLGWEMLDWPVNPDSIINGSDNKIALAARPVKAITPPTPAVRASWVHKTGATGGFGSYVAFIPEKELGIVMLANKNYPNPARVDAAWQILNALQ
# Only a part is listed here, and it is no random draw. The source made the active and inactive calls. The call rests on the fitted dose curve; in most records, active means well fitted inhibition curve with a large enough effect; inconclusive means small, poorly fitted or top-dose-only effect; inactive means no such curve, though single readings can be large or run the other way.
# Biological target: Beta-lactamase (Escherichia coli (strain K12)) (UniProt P00811)
# Assay: qHTS Inhibitors of AmpC Beta-Lactamase (assay without detergent); further: nearly all actives have a fitted effect of over 20% in size
# Conditions: AmpC nitrocefin hydrolysis, absorbance 480 nm, 0.0001% Triton; at 57.1 µM (top of the series) unless noted
# Protocol: NIH Molecular Libraries Probe Production Network [MLPCN] NIH Chemical Genomics Center [NCGC] Assay Provider: Professor Brian Shoichet, UCSF Assay Overview: This aggregation profiling approach exploits the sensitivity of aggregate formation to detergent. Inhibition of b-lactamase is measured in the presence and absence of 0.01% Triton X-100. This particular assay had the prescence of 0.01% Triton X-100. See Pubchem assay "Promiscuous and Specific Inhibitors of AmpC Beta-Lactamase (assay without detergent)" for related screen. Compounds that inhibit only in the absence of detergent are considered likely promiscuous aggregators. A screen of 1,030 compounds was performed in Brian Shoichet's lab in 96-well format. AmpC activity was measured by following the absorbance at 480 nm. Nitrocefin is a chromogenic substrate: while nitrocefin is yellow (lmax 390 nm), the product of its hydrolysis is red (lmax 486 nm, 17,000 M-1). AmpC beta lactamase was provided by Shoichet Lab, UCSF.
# Buffer: 20 mM phosphate buffer, pH 7.0 Triton X-100: No Detergent screen: 0.0001%, Detergent screen: 0.01%. Reagents/Controls: Buffer in columns 3 and 4 as negative control (no enzyme). 5.3 nM AmpC in columns 1, 2, 5-48. Titration of UCSF compound 9 control (from 10 mM, then 1:2) pin-transferred to column 2. Column 1 is neutral (100% activity). Assay Steps: Six uL of reagents were dispensed to 1536-well Greiner black clear bottom plates. Compounds and controls (23 nL) were transferred via Kalypsys PinTool. The plates were incubated for 15 min at room temperature, and then 2 uL of 800 uM solution of nitrocefin was added to start the reaction. The plates were immediately transferred to and read every 20 seconds for 4 min on ViewLux (Perkin-Elmer) High-throughput CCD imager using 480 nm absorbance protocol. During dispense, reagent bottles were kept submerged into 4 deg C water bath. Keywords: NIH Roadmap, MLSCN, MLI, MLSMR, qHTS, NCGC, AmpC Beta-Lactamase, Aggregation
row,Structure (SMILES),"activity change, negative = inhibition"
1,O=C(NCC1(N2CCCCC2)CCCCC1)c1ccc(Cl)nc1,inactive: 1.98%
2,Cc1cc(C)cc(N(C(=O)c2ccccc2)C2CCN(C(=O)OC(C)(C)C)CC2)c1,inactive: 137%
3,O=C(NCC1(N2CCOCC2)CCCCC1)c1cc2ccccc2o1,inactive: -13.3%
4,O=C(OC1CN2CCC1CC2)C1c2ccccc2Oc2ccccc21 (configuration not stated),inactive: 7.24%
5,O=C(NCC1(N2CCCCC2)CCCCC1)c1ccc(Cl)s1,inactive: -4.53%
6,N#CC1(Nc2ccccc2)CCN(Cc2ccccc2)CC1,inactive: -6.2%
7,COc1ccc(Cl)cc1C(=O)NCC1(N2CCOCC2)CCCCC1,inactive: 23.1%
8,CCOC(=O)N1CCC(Nc2ccc(OC)cc2)CC1,inactive: -16.1%
9,COc1ccc(C(=O)NCC2(N3CCCCC3)CCCCC2)cc1,inactive: -4.81%
10,CC(C)(C)OC(=O)N1CCC(N(C(=O)c2ccccc2)c2ccc(F)cc2)CC1,inactive: 67.6%
11,COc1ccc(C(=O)NCC2(N3CCCCC3)CCCCC2)c(OC)c1OC,inactive: -13.2% [at 2.29 µM]
12,O=C(NCC1(N2CCCCC2)CCCCC1)c1ccc(=O)[nH]c1,inactive: -7.17%
13,O=C(NCC1(N2CCCCC2)CCCCC1)c1cccs1,inactive: -22.2%
14,CSc1ccccc1C(=O)NCC1(N2CCCCC2)CCCCC1,inactive: 22%
15,COc1cc(C(=O)NCC2(N(C)C)CCCCC2)ccc1OC(F)F,inactive: -13%
16,CCOC(=O)N1CCC(Nc2cccc(C)c2)CC1,inactive: -11.8%
17,Cc1ccc(OCC(C)C)c(CN(CCCl)CCCl)c1,inactive: -3.68%
18,CCOc1ccc(C)cc1CN(CCCl)CCCl,inactive: -1.97%
19,O=C(NCC1(N2CCCCC2)CCCCC1)c1ccc(F)cc1,inactive: -19.2%
20,CCCCOc1ccc(C(=O)NCC2(N3CCOCC3)CCCCC2)cc1,inactive: 41.6%
21,COc1ccc(NC2CCN(CCc3ccccc3)CC2)c(OC)c1,inactive: -8.57%
22,CCOC(=O)N1CCC(Nc2ccc(F)cc2)CC1,inactive: -7.58%
23,O=[N+]([O-])c1cc([N+](=O)[O-])c(NCC2CCS(=O)(=O)C2)c([N+](=O)[O-])c1 (configuration not stated),inactive: -24.3%
24,O=C(NCC1(N2CCCCC2)CCCCC1)c1cccc(C(F)(F)F)c1,inactive: -10.9%
25,COc1cc(C(=O)NCC2(N3CCCCC3)CCCCC2)ccc1OC(F)F,inactive: -0.667%
26,O=C(NCC1(N2CCOCC2)CCCCC1)c1cc(=O)[nH]c2ccccc12,inactive: -10.9%
27,CN1CCN(CCOC(=O)C(O)(c2ccccc2)c2ccccc2)CC1,inactive: -3.19%
